Where two headings read alike, the source gives them in different places.
Legend:
[1] = target: PvNMT[G386E] (Plasmodium vivax, UniProt A5K1A2, G386E); assay: Surface plasmon resonance (SPR) assay; type: binding, P. vivax; settings: SPR equilibrium KD, 4 μM myristoylCoA, 25°C
[2] = tested on: P. falciparum 3D7 parasites (PfNMT[WT]); settings: read-out: Growth assay PfNMT[WT] EC50; 3D7 WT compared with G386E clones (Figure 3A, Table S2); curves constrained at top and bottom
[3] = tested on: P. falciparum 3D7 PfNMT[G386E] clones; settings: for Ratio PfNMT[G386]/PfNMT[WT] EC50, Clone 1 / Ratio PfNMT[G386]/PfNMT[WT] EC50, Clone 2: EC50 of [G386E]/[WT]
[4] = read-out: Growth assay PfNMT[G386E] Clone 1 EC50, 3D7 CRISPR-Cas9 G386E Clone 1
[5] = read-out: Growth assay PfNMT[G386E] Clone 2 EC50, 3D7 CRISPR-Cas9 G386E Clone 2

The chains behind the UniProt entries cited, without tags or fusion partners. Residues count along the entry.
UniProt A5K1A2, 27-410 G386E limits assumed: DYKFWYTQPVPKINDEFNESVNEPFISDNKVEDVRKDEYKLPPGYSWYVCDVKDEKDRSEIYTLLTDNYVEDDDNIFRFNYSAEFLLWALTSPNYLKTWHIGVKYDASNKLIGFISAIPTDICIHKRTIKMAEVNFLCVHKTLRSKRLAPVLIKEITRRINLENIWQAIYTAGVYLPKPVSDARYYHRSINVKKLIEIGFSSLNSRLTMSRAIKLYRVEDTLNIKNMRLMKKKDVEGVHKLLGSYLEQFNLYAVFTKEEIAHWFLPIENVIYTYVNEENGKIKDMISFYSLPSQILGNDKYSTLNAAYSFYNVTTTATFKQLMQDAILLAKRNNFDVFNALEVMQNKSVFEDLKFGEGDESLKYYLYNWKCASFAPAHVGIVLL

Row | Compound | decrease in affinity (KD PvNMT[G386E] / KD PvNMT[WT]) [1] [fold] | EC50 [2] [nM] | Ratio PfNMT[G386]/PfNMT[WT] EC50, Clone 1 [3] | Ratio PfNMT[G386]/PfNMT[WT] EC50, Clone 2 [3] | EC50 [3, 4] [nM] | EC50 [3, 5] [nM]
1 | Cc1nn(C)c(C)c1Cc1nnc(-c2sc3ccccc3c2OC2CCNCC2)o1 | 100 | 80 | 19 | 18 | 1500 | 1400
2 | c1cnc(OC2CCNCC2)c(-c2nc(Cc3cccc4ncccc34)no2)c1 | 20 | 93 | 12 | 10 | 1080 | 947

— article PMC6658617, “Structure-Guided Identification of Resistance Breaking Antimalarial N‑Myristoyltransferase Inhibitors” (Cell Chemical Biology, 2019)
